Measured values from several laboratories, pooled; numbers as filed in NIAID ChemDB.

Shared fields: host cell toxicity; cell line: HeLa; measure: CC50

Blank or dashed fields: not listed here. Rows are shuffled and stem from different studies. CCn is the concentration with n% toxicity to the cells. a–b is a range or a potency band.

structure | method | value
C#C[C@]1(CO)O[C@@H](n2ccc(N)nc2=O)[C@@H](O)[C@@H]1O | MTT | >200 µM
CC(C)(C)CC(C)(C)c1ccc(OCCOP(=O)([O-])OCCC[N+](C)(C)Cc2ccccc2)cc1 | MTT | >100 µM
NC(=O)c1nc(F)c[nH]c1=O | - | >1000 µg/mL
Nc1nc2c(ncn2COC2COP(=O)(O)OC2)c(=O)[nH]1 | trypan blue | >125 µg/mL
OCCOC(CCO)n1cnc2cc(Cl)c(Cl)cc21 | - | ≥200 µg/mL
O=c1cc(C(F)(F)F)[nH]c(=S)[nH]1 | MTS | 56.3 µM
NC(=O)c1[nH]nc([C@@H]2O[C@H](CO)[C@@H](O)[C@H]2O)c1O | trypan blue | 75 µg/mL
Nc1nc2c(nnn2C[C@H]2CC[C@@H](CO)C2)c(=O)[nH]1 | - | ≥400 µg/mL
C=CCS/C(Nc1cccc(C(F)(F)F)c1)=C(/C#N)S(=O)(=O)c1ccccc1 | MTT / absorbance | 3.3 µM
N=C(N)c1cn([C@@H]2O[C@H](CO)[C@@H](O)[C@@H]2O)c2ncnc(N)c12 | - | >100 µM
Nc1nc(Cl)c2nnn(C[C@H]3CC[C@@H](CO)C3)c2n1 | - | 400 µg/mL
CC(C)(C)CC(C)(C)c1ccc(OCCOP(=O)([O-])OCC[N+](C)(C)Cc2ccccc2)cc1 | MTT | >100 µM
O=c1[nH]c(=O)n([C@H]2C[C@H](O)[C@@H](CO)O2)cc1/C=C/Br | - | >400 µg/mL
O=[N+]([O-])c1cc(Cl)c(Cl)cc1[N+](=O)[O-] | - | 10 µg/mL
N/C(=N/O)c1cn([C@@H]2O[C@H](CO)[C@@H](O)[C@@H]2O)c2ncnc(N)c12 | - | 175 µM
OCCOC(CO)n1cnc2cc(Cl)c(Cl)cc21 | - | ≥400 µg/mL
NC(=O)c1cn([C@H]2C[C@H](O)[C@@H](CO)O2)c2ncnc(N)c12 | - | 1.5 µM
O=C1C=COC=C2C[C@@]34SS[C@]5(CC6=COC=CC(O)C6N5C3=O)C(=O)N4C12 | - | 0.8 µg/mL
CCCCCCCCCCCCCCCCOP(=O)([O-])OCC[n+]1ccccc1 | MTT | 52.1 µM
NC(=O)c1c[se]c([C@@H]2O[C@H](CO)[C@@H](O)[C@H]2O)n1 | - | 3.125–6.25 µg/mL
CC(=C/C(C)C/C=C/C(C)=C/C(CO)C(=O)C(C)C(O)C(C)C/C(C)=C/C(=O)O)/C=C/C1OC(=O)C=CC1C | - | 0.0074 µM
CS/C(Nc1ccccc1C(F)(F)F)=C(/C#N)S(=O)(=O)c1ccccc1 | MTT / absorbance | <0.05 µM
CN1C(=O)[C@]23CC4=CC=C[C@H](O)[C@H]4N2C(=O)[C@@]1(CO)SS3 | - | 0.6 µg/mL
CCOc1cc(O)c(C(=O)NCc2ccc(OC)cc2)c(OC)c1 | - | ≥25 µg/mL
O=C1N2C3C(=COC=CC3O)C[C@]23SSSS[C@]12CC1=COC=CC(O)C1N2C3=O | - | 3 µg/mL
CCC(=C/C(C)C/C=C/C(C)=C/C(C)C(=O)C(C)C(OC(C)=O)C(C)C/C(C)=C/C(=O)O)/C=C/C1OC(=O)C=CC1C | - | 0.006 µM
CC(=O)OC1C=COC=C2C[C@@]34NC(=S)S[C@]5(CC6=COC=CC(OC(C)=O)C6N5C3=O)C(=O)N4C21 | - | >25 µg/mL
N=C(N)c1cn([C@H]2C[C@H](O)[C@@H](CO)O2)c2ncnc(N)c12 | - | 14 µM
CCC(=C/C(C)C/C=C/C(C)=C/C(CO)C(=O)C(C)C(O)C(C)C/C(C)=C/C(=O)OC)/C=C/C1OC(=O)C=CC1C | - | 0.002 µM
Nc1ncnc2c1ncn2[C@@H]1O[C@H](CC(N)CC[C@H](N)C(=O)O)[C@@H](O)[C@H]1O | - | 100 µg/mL
Cn1ncnc2c(=O)n(C)c(=O)nc1-2 | fluorescence | 0.43 µM
CCCCCCCCCCCCCCCC(=O)O | - | 50–100 µg/mL
Nc1nc2c(ncn2C[C@H]2CC[C@@H](CO)C2)c(=O)[nH]1 | - | ≥400 µg/mL
O=c1[nH]cnc2c1ncn2[C@H]1CC[C@@H](CO)O1 | MTT | >100 µM
CCC(=C/C(C)C/C=C/C(C)=C/C(C)C(=O)C(C)C(O)C(C)C/C(C)=C/C(=O)OC)/C=C/C1OC(=O)C=CC1C | - | 0.002 µM
COC(=O)N[C@H](C(=O)N1CCC[C@H]1c1nc2ccc(-c3csc4c(-c5ccc(-c6cnc([C@@H]7CCCN7C(=O)[C@H](NC(=O)OC)c7ccccc7)[nH]6)cc5)csc34)cc2[nH]1)C(C)C | resazurin | >50 µM
CS/C(Nc1cccc(C(F)(F)F)c1)=C(/C#N)S(=O)(=O)c1ccccc1 | MTT / absorbance | 13.3 µM
OC[C@H]1O[C@@H](n2cnc3cc(Cl)c(Cl)cc32)[C@H](O)[C@@H]1O | - | ≥40 µg/mL
O=C(NCCOc1ccc2c(c1)CCCC2)c1ccccc1Cl | - | 60.1 µM
CC(=O)OC1CN2CCC1CC2 | - | 300–400 µg/mL
CC(=O)OC1C=COC=C2CC34SSC5(CC6=COC=CC(OC(C)=O)C6N5C3=O)C(=O)N4C21 | - | 75 µg/mL
O[C@@H]1[C@@H](OCc2ccccc2)[C@@H](COCc2ccccc2)O[C@H]1n1cnc2cc(Cl)c(Cl)cc21 | - | ≥40 µg/mL
Cc1cccc(OCCNC(=O)c2cc3ccccc3cc2O)c1 | - | 133.5 µM
CS/C(Nc1cccc(C(C)C)c1)=C(/C#N)S(=O)(=O)c1ccccc1 | MTT / absorbance | 18.2 µM
Nc1nc(Cl)c2ncn(C[C@H]3CC[C@@H](CO)C3)c2n1 | - | ≥10 µg/mL
O=C(NCCOc1ccc2ccccc2c1)c1ccccc1Cl | - | 89.6 µM
CC(=O)O[C@@]12CO[C@@H]1C[C@H](O)[C@@]1(C)C(=O)[C@H](O)C3=C(C)C(OC(=O)/C=C/c4ccc5ccccc5c4)C[C@@](O)([C@@H](OC(=O)c4ccccc4)[C@H]21)C3(C)C | sulforhodamine | 45 µM
C/C=C(\CO)C(=O)O[C@H]1[C@H](O)[C@@H](C(=O)OC)O[C@@H]2C[C@H]3O[C@@H](n4cnc5c(N)ncnc54)[C@H](OC)[C@H]3O[C@]21O | - | 100 µg/mL
CCC(=C/C(C)C/C=C/C(C)=C/C(C)C(=O)C(C)C(OC(C)=O)C(C)C/C(C)=C/C(=O)OC)/C=C/C1OC(=O)C=CC1C | - | 0.001 µM
CS/C(Nc1cc(C)cc(C)c1)=C(/C#N)S(=O)(=O)c1ccccc1 | MTT / absorbance | >100 µM
CC(=O)OC1C=COC=C2C[C@@]34SSSS[C@]5(CC6=COC=CC(OC(C)=O)C6N5C3=O)C(=O)N4C21 | - | 115 µg/mL
Cc1ccc(C)c(CN2CCN(c3nc(C(=O)O)cs3)CC2)c1 | - | ≥25 µg/mL
CS/C(Nc1ccccc1)=C(/C#N)S(=O)(=O)c1ccc(Cl)cc1 | MTT / absorbance | >30 µM
COc1cc(-c2oc3cc(O)cc(O)c3c(=O)c2O)ccc1O | trypan blue | 4 µg/mL
Cc1cccc(OCCNC(=O)c2ccccc2O)c1 | - | 59.3 µM
CS/C(Nc1ccc(C(F)(F)F)cc1)=C(/C#N)S(=O)(=O)c1ccccc1 | MTT / absorbance | 23.4 µM
CCCCCCCCCCCCCCCCOP(=O)([O-])OCCC[n+]1ccccc1 | MTT | 74.7 µM

Repeating the final 4 entries:

structure,method,value
COc1cc(-c2oc3cc(O)cc(O)c3c(=O)c2O)ccc1O,trypan blue,4 µg/mL
Cc1cccc(OCCNC(=O)c2ccccc2O)c1,-,59.3 µM
CS/C(Nc1ccc(C(F)(F)F)cc1)=C(/C#N)S(=O)(=O)c1ccccc1,MTT / absorbance,23.4 µM
CCCCCCCCCCCCCCCCOP(=O)([O-])OCCC[n+]1ccccc1,MTT,74.7 µM